Pooled drug test results. Numbers come from NIAID ChemDB, via PubChem.

Shared fields: tests in culture; species: Mycobacterium tuberculosis

Rows are shuffled and stem from different studies.

compound,conditions,dose,endpoint,method,changes,strain,value
O=C1/C(=C/c2ccc(Cl)cc2)COc2ccccc21,-,10 µg/mL,inhibition,broth dilution / resazurin,-,H37Rv,45%
COC(=O)[C@@H]1C2CC3c4[nH]c5ccccc5c4CCN3CC2CC[C@@H]1OS(=O)(=O)O,-,6.25 µg/mL,inhibition,-,-,H37Rv,-10%
O=C(N/N=C/c1ccc(Oc2cc(Cl)cc(Cl)c2)cc1)c1nc2ccccc2[nH]1,-,-,MIC,resazurin,-,H37Rv,25 µg/mL
Cc1ccc(-c2cc(-c3ccc(Cl)cc3)nc(/N=C3\C(=O)N(CN4CCOCC4)c4ccc(Br)cc43)n2)cc1,-,6.25 µg/mL,inhibition,BACTEC,-,H37Rv,91%
CC1S/C(=N/N=C/c2ccc(Cl)cc2)N=C1c1c(O)c2ccccc2oc1=O,-,-,MIC bound,BACTEC,-,H37Rv,>12.5 µg/mL
O=c1oc2ccccc2c(=O)n1-c1ccccc1,-,-,MIC,-,-,My 331/88,125 µM
CCOc1ccc2nc(NC(=O)CSc3nnc(-c4ccc5ncccc5c4)o3)sc2c1,-,-,MIC,agar,-,H37Rv,12.5 µg/mL
O=c1oc2ccccc2c(=O)n1-c1cccc(Cl)c1,-,-,MIC,-,-,My 331/88,31 µM
O=C(CSc1nnc(-c2ccc3ncccc3c2)o1)Nc1nc2ccc(Br)cc2s1,-,-,MIC,agar,-,H37Rv,6.25 µg/mL
C=C1C(=O)O[C@@H]2[C@H]3C(C)=CC(=O)C3=C(C)CC[C@@H]12,-,-,MIC bound,BACTEC,-,H37Rv,>12.5 µg/mL
Cc1ccc(-c2cc(-c3ccc(Cl)cc3)nc(/N=C3\C(=O)Nc4ccc(Br)cc43)n2)cc1,-,6.25 µg/mL,inhibition,BACTEC,-,H37Rv,92%
CC(/C=C/c1ccccc1)=N\NC(=O)c1ccncc1,-,6.25 µg/mL,inhibition,resazurin,-,H37Rv,97%
CCc1cn(C2OC(COC(C)=O)C(OC(C)=O)C2F)c(=O)[nH]c1=O,-,-,MIC68,resazurin,-,H37Ra,100 µg/mL
O=C(Nc1ccc(Cl)cc1)c1ccccc1O,-,-,MIC,-,-,My 331/88,31 µM
O=C(c1ccccc1)c1ccc2nc(C(=O)N/N=C/c3ccc(Oc4ccc(Cl)cc4Cl)cc3)[nH]c2c1,-,-,MIC,resazurin,-,H37Rv,12.5 µg/mL
O=C(/C=C/c1ccccc1)n1c(-c2cccc([N+](=O)[O-])c2)nc2ccccc21,-,-,MIC100,resazurin / visual reading,-,H37Rv,50 µg/mL
Cc1ccc(-c2cc(-c3ccc(Cl)cc3)nc(/N=C3\C(=O)N(CN4CCCCC4)c4ccc(Br)cc43)n2)cc1,-,-,EC50,BACTEC,-,H37Rv,<6.25 µg/mL
O=c1oc2ccccc2c(=O)n1-c1cccc(F)c1,-,-,MIC,-,-,CNCTC MY331/88,62 µM
CN(C)c1ccc(NC(=O)c2ccccc2O)cc1,-,-,MIC,-,-,My 331/88,250 µM
O=c1oc2ccccc2c(=O)n1-c1ccc(C(F)(F)F)cc1,-,-,MIC,-,-,CNCTC MY331/88,8 µM
N[C@@H](C[C@H]1CCC(=O)[C@@H]2O[C@H]12)C(=O)O,-,-,MIC,BACTEC,-,H37Rv,≥12.5 µg/mL
CN(C)c1ccc(-n2c(=O)oc3ccc(Cl)cc3c2=O)cc1,-,-,MIC,-,-,CNCTC MY331/88,31 µM
CC(=O)Nc1ccc(NC(=O)CSc2nnc(-c3ccc4ncccc4c3)o2)cc1,-,-,MIC,agar,-,H37Rv,100 µg/mL
CC1=C(O)C(=O)C(C2=C(O)C(=O)C(C)=C(O)C2=O)=C(O)C1=O,-,-,MIC bound,BACTEC,-,H37Rv,>12.8 µg/mL
N#Cc1ccc(-n2c(=O)oc3ccc(F)cc3c2=O)cc1,-,-,MIC,-,-,CNCTC MY331/88,8 µM
Cc1ccc(-c2cc(-c3ccc(Cl)cc3)nc(/N=C3\C(=O)N(CN(C)C)c4ccccc43)n2)cc1,-,-,EC50,BACTEC,-,H37Rv,<6.25 µg/mL
N#C/C(=C\c1cccc([N+](=O)[O-])c1)n1nnc2ccccc21,-,-,MIC50,-,-,ATCC 27294,38.2 µM
CCc1cn2c(nc1=O)O[C@@H]1[C@H](F)[C@H]2O[C@@H]1CO,-,-,MIC25,resazurin,-,H37Ra,50 µg/mL
COc1ccc2oc(=O)n(-c3cccc(F)c3)c(=O)c2c1,-,-,MIC,-,-,CNCTC MY331/88,62.5 µM
CN[C@@H]1[C@H](O[C@H]2[C@H](O[C@H]3[C@H](O)[C@@H](O)[C@H](N=C(N)N)[C@@H](O)[C@@H]3N=C(N)N)O[C@@H](C)[C@]2(O)C=O)O[C@@H](CO)[C@H](O)[C@H]1O,-,-,MIC,resazurin / visual reading,-,H37Rv,6.25 µg/mL
Cc1cccc(/C=C2\COc3ccccc3C2=O)c1,-,-,EC50,broth dilution / resazurin,-,H37Rv,0.46 µg/mL
CCCCCCCCCCCCNC1=C(Cl)C(=O)C(=O)c2cccnc21,-,12.5 µg/mL,inhibition,BACTEC,-,H37Rv,99%
O=C1/C(=C/c2ccc(Br)cc2)COc2ccccc21,-,10 µg/mL,inhibition,broth dilution / resazurin,-,H37Rv,27%
CC(=O)OCc1cc(=O)n(C)c2c3c4c(cc12)c(C)cc(=O)n4CO3,-,-,MIC,-,-,KM-R,3.2 µg/mL
O=c1[nH]c(=S)c(CO)cn1C1OC(CO)C(O)C1O,-,-,MIC100,resazurin,-,H37Ra,100 µg/mL
N#C/C(=C\c1cc(F)cc(F)c1)n1nnc2ccccc21,-,-,MIC90,-,-,ATCC 27294,98.6 µM
C/C(=N\NC(=O)Cn1nc(N2CCN(c3ccc(F)cc3)CC2)ccc1=O)c1ccc(Br)cc1,-,-,MIC,agar,-,H37Rv,5 µg/mL
COc1cc(Cl)c2c3c(c(C(=O)c4ccccc4)oc13)CCC2,-,-,MIC bound,BACTEC,-,H37Rv,>12.5 µg/mL
O=c1oc2ccc([N+](=O)[O-])cc2c(=O)n1-c1ccc(F)cc1,-,-,MIC,-,-,CNCTC MY331/88,31 µM
N#C/C(=C/c1ccccc1Br)n1nnc2ccccc21,-,-,MIC90,-,-,ATCC 27294,33.1 µM
S=c1oc(-c2cnccn2)nn1CNc1ccc(Cl)cc1,-,-,MIC,-,-,H37Rv,0.1 µg/mL
O=c1oc2ccccc2c(=O)n1-c1cccc([N+](=O)[O-])c1,-,-,MIC,-,-,My 331/88,31 µM
Cc1cc(C2(c3cc(C)c(O)cc3C)OS(=O)(=O)c3ccccc32)c(C)cc1O,-,-,MIC bound,BACTEC,-,H37Rv,>12.5 µg/mL
COc1ccc2oc(=O)n(-c3cccc(Cl)c3)c(=O)c2c1,-,-,MIC,-,-,CNCTC MY331/88,125 µM
O=C(CSc1nnc(-c2ccc3ncccc3c2)o1)Nc1nc2ccc(Cl)cc2s1,-,-,MIC,agar,-,H37Rv,50 µg/mL
C/C(=N\NC(=O)Cn1nc(N2CCN(c3ccccc3)CC2)ccc1=O)c1ccc(Br)cc1,-,-,MIC,agar,-,H37Rv,5 µg/mL
O=C(NCC(=O)N1CCN(c2ccc(N3C[C@H](Cn4ccnn4)OC3=O)cc2F)CC1)c1cccnc1,-,-,MIC,visual reading,-,H37Rv,2 µM
C/C(=N\NC(=O)Cn1nc(N2CCN(c3ccc(F)cc3)CC2)ccc1=O)c1ccccc1,-,-,MIC,agar,-,H37Rv,20 µg/mL
O=C1/C(=C/c2cccc(Br)c2)CCCc2ccccc21,-,12.5 µg/mL,inhibition,broth dilution / resazurin,-,H37Rv,63%
O=C(/C=C/c1ccccc1)n1c(-c2ccccc2Cl)nc2ccccc21,-,-,MIC100,resazurin / visual reading,-,H37Rv,50 µg/mL
O=c1oc2cc(Cl)ccc2c(=O)n1-c1cccc(F)c1,-,-,MIC,-,-,CNCTC MY331/88,8 µM
N#C/C(=C\c1cc(Cl)cc(Cl)c1)n1nnc2ccccc21,-,-,MIC50,-,-,ATCC 27294,63.8 µM
Cc1ccc(/C=C2\CCc3ccccc3C2=O)cc1,-,12.5 µg/mL,inhibition,broth dilution / resazurin,-,H37Rv,0%
CS/C(=N\S(=O)(=O)c1ccccc1)NNC(=O)c1c(-c2c(Cl)cccc2Cl)noc1C,-,12.5 µg/mL,inhibition,BACTEC,-,H37Rv,17%
CO[C@H]1/C=C/O[C@@]2(C)Oc3c(C)c(O)c4c(O)c(c(/C=N/N5CCN(C)CC5)c(O)c4c3C2=O)NC(=O)/C(C)=C\C=C\[C@H](C)[C@H](O)[C@@H](C)[C@@H](O)[C@@H](C)[C@H](OC(C)=O)[C@@H]1C,-,-,MIC,-,-,H37Rv (kanamycin-resistant),2.5 µg/mL
C[C@H](NCn1nc(-c2cnccn2)oc1=S)C(=O)O,-,-,MIC,-,-,H37Rv,0.1 µg/mL
O=C(N/N=C/c1ccc(Oc2cc(Cl)cc(Cl)c2)cc1)c1nc2ccc(Cl)cc2[nH]1,-,-,MIC,resazurin,-,H37Rv,12.5 µg/mL
COc1ccccc1/C=C1\COc2ccccc2C1=O,-,10 µg/mL,inhibition,broth dilution / resazurin,-,H37Rv,65%
Cc1ccc(-c2cc(-c3ccc(Cl)cc3)nc(/N=C3\C(=O)Nc4ccccc43)n2)cc1,-,6.25 µg/mL,inhibition,BACTEC,-,H37Rv,97%
COc1ccc(NC(=O)c2ccccc2O)cc1,-,-,MIC,-,-,My 331/88,62 µM
CCC1(CC)N=C2OCCN2C1=O,-,-,MIC,BACTEC,-,H37Rv,≥12.5 µg/mL
N#C/C(=C\c1ccc(I)cc1)n1nnc2ccccc21,-,-,MIC50,-,-,ATCC 27294,17 µM
O=C(NCCNC(=O)c1ccncc1)c1ccccc1,-,-,MIC bound,resazurin,-,H37Rv,>6.25 µg/mL
Cc1ccc(Cn2nnc(-c3cc([N+](=O)[O-])cc([N+](=O)[O-])c3)n2)cc1,21 d,-,MIC,-,-,8666/2010,0.125 µM
Cn1cnc([N+](=O)[O-])c1Sc1cn(C2CC(O)C(CO)O2)c(=O)[nH]c1=O,-,-,MIC bound,BACTEC,-,H37Rv,>12.5 µg/mL
O=C(N/N=C/c1ccc(Oc2cccc3ccccc23)cc1)c1nc2ccc(Cl)cc2[nH]1,-,-,MIC,resazurin,-,H37Rv,12.5 µg/mL
Cc1cccc(/C=C2\CCc3ccccc3C2=O)c1,-,12.5 µg/mL,inhibition,broth dilution / resazurin,-,H37Rv,40%
Cc1cc2oc(=O)c3c(c2c(O)c1CN1CCOCC1)CCCC3,-,12.5 µg/mL,inhibition,BACTEC,-,H37Rv,1%
Cc1ccc(-n2c(=O)oc3ccccc3c2=O)cc1,-,-,MIC,-,-,CNCTC MY331/88,62 µM
C/C(=N\NC(=O)Cn1nc(N2CCN(c3ccccc3)CC2)ccc1=O)c1ccc(F)cc1,-,-,MIC,agar,-,H37Rv,20 µg/mL
O=C(/C=C/c1ccccc1)n1c(-c2cccc(Br)c2)nc2ccccc21,-,-,MIC100,resazurin / visual reading,-,H37Rv,50 µg/mL
S=c1[nH]nc(-c2cnccn2)o1,-,-,MIC,-,-,H37Rv,0.1 µg/mL
O=C(NCC(=O)N1CCN(c2ccc(N3C[C@H](Cn4ccnn4)OC3=O)cc2F)CC1)C1=CC=C([N+](=O)[O-])C1,-,0.03 µM,inhibition,broth dilution / visual reading,Ofloxacin-resistant,SRI 4000,56%
Nc1nc2c([nH]c(=O)n2C2OC(CO)C(O)C2O)c(=O)n1N,-,12.5 µg/mL,inhibition,BACTEC,-,H37Rv,18%
Cc1ccc(-c2cc(-c3ccc(Cl)cc3)nc(/N=C3\C(=O)N(CN(C)C)c4ccc(Cl)cc43)n2)cc1,-,-,EC50,BACTEC,-,H37Rv,<6.25 µg/mL
O=C1C(N=Nc2ccc([N+](=O)[O-])cc2)Sc2nc3ccccc3n21,-,-,MIC bound,BACTEC,-,H37Rv,>12.5 µg/mL
O=C(c1ccccc1)c1ccc2nc(C(=O)N/N=C/c3ccc(Oc4ccc(Cl)cc4)cc3)[nH]c2c1,-,-,MIC,resazurin,-,H37Rv,12.5 µg/mL
C[C@@H]1O[C@@H](OC[C@H]2O[C@@H](Oc3c(-c4ccc(O)c(O)c4)oc4cc(O)cc(O)c4c3=O)[C@H](O)[C@@H](O)[C@@H]2O)[C@H](O)[C@H](O)[C@H]1O,-,-,MIC,BACTEC,-,H37Rv,≥128 µg/mL
Nc1ccccc1C(=O)Nc1ccccc1,-,-,MIC,-,-,My 331/88,>1000 µM
COC(=O)NS(=O)(=O)n1cc[n+](C)c1,-,12.5 µg/mL,inhibition,BACTEC,-,H37Rv,1%
N#Cc1ccc(NC(=O)CSc2nnc(-c3ccc4ncccc4c3)o2)cc1,-,-,MIC,agar,-,H37Rv,100 µg/mL
COc1cccc(/C=N/Nc2ccc([N+](=O)[O-])cn2)c1O,-,-,MIC bound,BACTEC,-,H37Rv,>12.5 µg/mL
O=Cc1ccc(/C=N/NC(=O)c2ccncc2)cc1,-,-,MIC99,BACTEC,-,katG (S315T),>39.5 µM

Repeating the first 8 entries:

| compound | conditions | dose | endpoint | method | changes | strain | value |
|---|---|---|---|---|---|---|---|
| O=C1/C(=C/c2ccc(Cl)cc2)COc2ccccc21 | - | 10 µg/mL | inhibition | broth dilution / resazurin | - | H37Rv | 45% |
| COC(=O)[C@@H]1C2CC3c4[nH]c5ccccc5c4CCN3CC2CC[C@@H]1OS(=O)(=O)O | - | 6.25 µg/mL | inhibition | - | - | H37Rv | -10% |
| O=C(N/N=C/c1ccc(Oc2cc(Cl)cc(Cl)c2)cc1)c1nc2ccccc2[nH]1 | - | - | MIC | resazurin | - | H37Rv | 25 µg/mL |
| Cc1ccc(-c2cc(-c3ccc(Cl)cc3)nc(/N=C3\C(=O)N(CN4CCOCC4)c4ccc(Br)cc43)n2)cc1 | - | 6.25 µg/mL | inhibition | BACTEC | - | H37Rv | 91% |
| CC1S/C(=N/N=C/c2ccc(Cl)cc2)N=C1c1c(O)c2ccccc2oc1=O | - | - | MIC bound | BACTEC | - | H37Rv | >12.5 µg/mL |
| O=c1oc2ccccc2c(=O)n1-c1ccccc1 | - | - | MIC | - | - | My 331/88 | 125 µM |
| CCOc1ccc2nc(NC(=O)CSc3nnc(-c4ccc5ncccc5c4)o3)sc2c1 | - | - | MIC | agar | - | H37Rv | 12.5 µg/mL |
| O=c1oc2ccccc2c(=O)n1-c1cccc(Cl)c1 | - | - | MIC | - | - | My 331/88 | 31 µM |

An empty or dashed field is not shown. A number after MIC or MFC names an inhibition level or a share of isolates. ECn: concentration that inhibits the pathogen or its effect by n%. MIC bound comes from a single tested concentration. Inhibition is in % at the dose shown (toxicity tests: loss of growth or viability).